Data source: PubChem BioAssay AID1259414 (Drosophila RNAi Screening Center, 2018)

Aim: 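Host factors increasing or decreasing Wolbachia levels in cultured fly cells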 (primary screen)
Cells: Drosophila JW18 cells infected with Wolbachia
Knock-down reagent: long dsRNA against Drosophila genes, 0.25 µg dsRNA per well of a 384-well plate
Time to read-out: 5 days
Treatment: cells persistently infected with Wolbachia before knock-down; no added drug
Detection: 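Automated imaging of bacterial rRNA staining divided by host cell count, reported as plate-normalised robust z-score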
Scale: Wolbachia per cell robust z: higher = more Wolbachia per host cell than the plate typical
Rule for the call: 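Hit when robust z is 1.5 or more, or -1.5 or less, in at least two of three replicates; excludes dsRNAs with several or no targets, genes not expressed in JW18 and well A1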
In all, the deposit lists about 24,000 reagents; shown is an unselected part of those that have a named target and a result. Over the whole deposit, about 1,210 (5%) were called active. 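Inactive calls also include excluded dsRNAs with several or no targets, genes unexpressed in JW18, and well A1, regardless of score.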 Reagents against one gene are numbered here. Names joined by + are all predicted targets of the reagent.

Gene	reagent	Wolbachia per cell robust z, rep 1	Wolbachia per cell robust z, rep 2	Wolbachia per cell robust z, rep 3	outcome
CG15040 (GeneID 32848)	1	-0.921	-0.181	-0.204	inactive
CG15040 (GeneID 32848)	2	0.415	-0.953	0.909	inactive
CG15040 (GeneID 32848)	3	-0.726	0.836	-0.924	inactive
pnr (GeneID 44849)	1	0.243	0.147	0.612	inactive
pnr (GeneID 44849)	2	1.13	0.142	0.374	inactive
Bub3 (GeneID 43490)	1	0.516	0.57	-6.31	inactive
Bub3 (GeneID 43490)	2	0.0894	-8.84	0.591	inactive
Neto (GeneID 32303)	1	-2.18	-1.6	-1.02	inactive
Neto (GeneID 32303)	2	0.0969	-2.01	-0.234	inactive
Neto (GeneID 32303)	3	-0.309	-0.0293	1.27	inactive
Neto (GeneID 32303)	4	0.742	-0.475	-2.82	inactive
Neto (GeneID 32303)	5	-1.07	0.0607	-4.08	inactive
Cpr65Ax1 + Cpr65Ax2	1	-0.444	-0.714	0.601	inactive
CG18530 (GeneID 59241)	1	0.556	-0.0526	0.16	inactive
RpL18 (GeneID 38794)	1	0.172	1.36	-0.287	inactive
RpL18 (GeneID 38794)	2	0.888	1.16	1.69	inactive
Pfdn1 (GeneID 33857)	1	-0.0321	0.705	0.309	inactive
Pfdn1 (GeneID 33857)	2	1.06	1.46	2.32	inactive
Oatp74D (GeneID 39954)	1	-0.936	-0.771	-6.32	inactive
Oatp74D (GeneID 39954)	2	-2.74	0.387	-0.526	inactive
asRNA:CR42547 + CG15674	1	0.152	-0.538	-0.585	inactive
prt (GeneID 117368)	1	-3.96	-0.381	-1.2	inactive
idc (GeneID 42393)	1	1.51	1.1	0.595	inactive
CG43134 (GeneID 12798107)	1	-1.31	-0.0341	-0.0494	inactive

Part of the list above, set out differently.
Gene,reagent,"Wolbachia per cell robust z, rep 1","Wolbachia per cell robust z, rep 2","Wolbachia per cell robust z, rep 3",outcome
CG15040 (GeneID 32848),3,-0.726,0.836,-0.924,inactive
pnr (GeneID 44849),1,0.243,0.147,0.612,inactive
pnr (GeneID 44849),2,1.13,0.142,0.374,inactive
Bub3 (GeneID 43490),1,0.516,0.57,-6.31,inactive
Bub3 (GeneID 43490),2,0.0894,-8.84,0.591,inactive
Neto (GeneID 32303),1,-2.18,-1.6,-1.02,inactive
Neto (GeneID 32303),2,0.0969,-2.01,-0.234,inactive
Neto (GeneID 32303),3,-0.309,-0.0293,1.27,inactive

The list goes on:
Gene	reagent	Wolbachia per cell robust z, rep 1	Wolbachia per cell robust z, rep 2	Wolbachia per cell robust z, rep 3	outcome
CG14500 (GeneID 37087)	1	0.358	-0.245	-2.38	inactive
CG14500 (GeneID 37087)	2	1.17	0.188	0.771	inactive
CG14982 (GeneID 38464)	1	-0.365	-0.584	0.422	inactive
Rrp1 (GeneID 33500)	1	1.01	-1.17	0.748	inactive
Rrp1 (GeneID 33500)	2	0.233	-0.238	0.461	inactive
COX6B (GeneID 32989)	1	0.317	-0.136	1.48	inactive
COX6B (GeneID 32989)	2	0.87	0.226	0.984	inactive
Cdk5 (GeneID 36727)	1	0.0145	0.944	-8.87	inactive
Cdk5 (GeneID 36727)	2	0.0371	0.168	-0.665	inactive
Gcna (GeneID 31139)	1	0.625	0.84	-0.319	inactive
edl (GeneID 37149)	1	0.399	-0.278	0.318	inactive
edl (GeneID 37149)	2	-2.66	0.998	0.616	inactive
CG42635 + CG42634	1	1.82	1.06	0.913	inactive
STUB1 (GeneID 34433)	1	0.659	-6.23	0.188	inactive
Fmo-1 (GeneID 37814)	1	0.448	0.0957	-2.28	inactive
Fmo-1 (GeneID 37814)	2	-2.97	-0.618	-2.57	inactive
rdx (GeneID 41704)	1	0.0769	0.134	0.0642	inactive
rdx (GeneID 41704)	2	0.81	0.713	0.206	inactive
rdx (GeneID 41704)	3	-0.476	-0.668	-0.324	inactive
rdx (GeneID 41704)	4	-0.823	-0.854	-0.737	inactive
CG10887 (GeneID 42399)	1	-0.426	0.536	-0.633	inactive
CG10887 (GeneID 42399)	2	-0.148	1.44	0.621	inactive
